Measurements reported in PubChem BioAssay AID1259414 (Drosophila RNAi Screening Center, 2018)
Assay: 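Host factors increasing or decreasing Wolbachia levels in cultured fly cells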 (primary screen). System: Drosophila JW18 cells infected with Wolbachia. Reagents: long dsRNA against Drosophila genes, 0.25 µg dsRNA per well of a 384-well plate. Timing: 5 days. Conditions: cells persistently infected with Wolbachia before knock-down; no added drug. Measurement: 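Imaged fluorescence in situ signal for Wolbachia 23S rRNA per DAPI-counted host cell, given as a robust z-score within each plate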. Scale: Wolbachia per cell robust z: higher = more Wolbachia per host cell than the plate typical. Hit rule: 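Active if absolute robust z reaches 1.5 in two or more of three replicates, leaving out multi- or no-target dsRNAs, genes unexpressed in JW18 and A1 wells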.
The deposit covers about 24,000 reagents; below is a random part of those that have a named target and a result. Over the whole deposit, about 1,210 (5%) were called active. 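Inactive calls also include excluded dsRNAs with several or no targets, genes unexpressed in JW18, and well A1, regardless of score.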 A number with no mark means an inactive call. Names joined by + are all predicted targets of the reagent.

CG18599 [DRSC23121] → Wolbachia per cell robust z, rep 1 = 0.264; Wolbachia per cell robust z, rep 2 = 0.00974; Wolbachia per cell robust z, rep 3 = 0.282
CG18599 [DRSC25823] → Wolbachia per cell robust z, rep 1 = -0.675; Wolbachia per cell robust z, rep 2 = -0.639; Wolbachia per cell robust z, rep 3 = -1.17
CG18599 [DRSC39070] → Wolbachia per cell robust z, rep 1 = 0.772; Wolbachia per cell robust z, rep 2 = 0.0319; Wolbachia per cell robust z, rep 3 = 0.4
CG12316 [DRSC09879] → Wolbachia per cell robust z, rep 1 = 0.558; Wolbachia per cell robust z, rep 2 = 0.463; Wolbachia per cell robust z, rep 3 = -8.8
CG12316 [DRSC27599] → Wolbachia per cell robust z, rep 1 = -3.37 (active); Wolbachia per cell robust z, rep 2 = -0.574; Wolbachia per cell robust z, rep 3 = -1.64
CG18269 [DRSC02660] → Wolbachia per cell robust z, rep 1 = -1.3; Wolbachia per cell robust z, rep 2 = -0.681; Wolbachia per cell robust z, rep 3 = -0.155
Alg1 [DRSC15297] → Wolbachia per cell robust z, rep 1 = 0.0759; Wolbachia per cell robust z, rep 2 = -0.0646; Wolbachia per cell robust z, rep 3 = -0.175
Alg1 [DRSC29409] → Wolbachia per cell robust z, rep 1 = -1.05; Wolbachia per cell robust z, rep 2 = 0.441; Wolbachia per cell robust z, rep 3 = -8.48
otp + asRNA:CR43160 [DRSC28164] → Wolbachia per cell robust z, rep 1 = -1.33; Wolbachia per cell robust z, rep 2 = -1.6; Wolbachia per cell robust z, rep 3 = 0.68
CG31103 [DRSC22324] → Wolbachia per cell robust z, rep 1 = 0.334; Wolbachia per cell robust z, rep 2 = 0.217; Wolbachia per cell robust z, rep 3 = -1.12
CG15642 + CG6299 + CG6294 [DRSC19981] → Wolbachia per cell robust z, rep 1 = -0.312; Wolbachia per cell robust z, rep 2 = -0.162; Wolbachia per cell robust z, rep 3 = 0.93
cbt [DRSC00655] → Wolbachia per cell robust z, rep 1 = -0.751; Wolbachia per cell robust z, rep 2 = 0.71; Wolbachia per cell robust z, rep 3 = -1.92
cbt [DRSC26117] → Wolbachia per cell robust z, rep 1 = -0.793; Wolbachia per cell robust z, rep 2 = -0.482; Wolbachia per cell robust z, rep 3 = -0.818
CR18217 [DRSC21506] → Wolbachia per cell robust z, rep 1 = -0.772; Wolbachia per cell robust z, rep 2 = -1.01; Wolbachia per cell robust z, rep 3 = -0.449
Tpr2 [DRSC03461] → Wolbachia per cell robust z, rep 1 = -0.676; Wolbachia per cell robust z, rep 2 = -1.68; Wolbachia per cell robust z, rep 3 = -0.207
CG13982 [DRSC02314] → Wolbachia per cell robust z, rep 1 = 0.657; Wolbachia per cell robust z, rep 2 = 0.071; Wolbachia per cell robust z, rep 3 = -7.64
